Results of unrelated studies side by side (data: NIAID ChemDB).

Common to all: tests on isolated targets; protein: CCR5; read by: radioligand binding / binding; measure: IC50

Conditions beyond the fields shown may differ between rows.

structure,result
CN(C[C@@H](CCN1CCC2(CC1)CSc1ccccc12)c1ccc(F)cc1)S(=O)(=O)c1ccccc1,<10 µM
CN(CCC(CCN1CCC2(CC1)CS(=O)c1ccccc12)c1ccccc1)S(=O)(=O)c1ccccc1,>1 µM
CCCN(C(=O)OCc1cccc2ccccc12)C1CCN(CCC(CN(C)S(=O)(=O)c2ccccc2)c2ccccc2)CC1,0.005 µM
CN(CC(CCN1CCC(c2ccccc2)CC1)c1ccccc1Cl)S(=O)(=O)c1ccccc1,3.3 µM
CCN(C(=O)OCc1ccccc1)C1CCN(CCC(CN(C)S(=O)(=O)c2ccccc2)(c2ccccc2)C(C)C)CC1,>0.1 µM
Cc1cccc(C(CCN2CCC(c3ccccc3)CC2)CN(C)S(=O)(=O)c2ccccc2)c1,0.68 µM
CN(C[C@@H](CCNCc1ccccc1)c1cccc(Cl)c1)S(=O)(=O)c1ccccc1,>10 µM
C#CCN(C(=O)OCc1ccccc1)C1CCN(CCC(C)(CN(C)S(=O)(=O)c2ccccc2)c2ccccc2)CC1,0.005 µM
CN(CC(CCN1CCC2(CC1)CSc1ccccc12)c1ccccc1Cl)S(=O)(=O)c1ccccc1,>10 µM
CCCN(C(=O)OCc1ccc([N+](=O)[O-])cc1)C1CCN(CC[C@](CO)(CN(C)S(=O)(=O)c2ccccc2)c2ccccc2)CC1,0.001 µM
CN(CC(C)(CCN1CCC2(CC1)CS(=O)(=O)c1ccccc12)c1ccccc1)S(=O)(=O)c1ccccc1,0.044 µM
CN(C[C@@H](CCN1CCC2(CC1)Cc1ccccc1C2=O)c1cccc(Cl)c1)S(=O)(=O)c1ccccc1,>1 µM
C=C(C)CN(C(=O)OCc1ccccc1)C1CCN(CCC(C)(CN(C)S(=O)(=O)c2ccccc2)c2ccccc2)CC1,0.003 µM
CCN(C(=O)OCc1ccccc1)C1CCN(CCC(CC)(CN(C)S(=O)(=O)c2ccccc2)c2ccccc2)CC1,0.0097 µM
CCCN(C(=O)OCc1ccccc1)C1CCN(CC[C@](C)(CN(C)S(=O)(=O)c2ccccc2)c2ccccc2)CC1,0.002 µM
CN(CC(CN1CCC(c2ccccc2)CC1)c1ccccc1)S(=O)(=O)c1ccccc1,>10 µM
CN(C[C@@H](CCN1CCN(c2ccccc2)CC1)c1cccc(Cl)c1)S(=O)(=O)c1ccccc1,2.4 µM
C=CCN(C(=O)OCc1ccc([N+](=O)[O-])cc1)C1CCN(CCC(CO)(CN(C)S(=O)(=O)c2ccccc2)c2ccccc2)CC1,0.002 µM
COC(=O)N(CC1CCCCC1)C1CCN(CCC(CN(C)S(=O)(=O)c2ccccc2)c2ccccc2)CC1,0.005 µM
CCN(C(=O)OCc1ccccc1)C1CCN(CCC(C#N)(CN(C)S(=O)(=O)c2ccccc2)c2ccccc2)CC1,0.012 µM
CCCN(C(=O)N[C@@H](C)c1ccccc1)C1CCN(CCC(CN(C)S(=O)(=O)c2ccccc2)c2ccccc2)CC1,>0.1 µM
CCCC(CCN1CCC(N(CC)C(=O)OCc2ccccc2)CC1)(CN(C)S(=O)(=O)c1ccccc1)c1ccccc1,0.036 µM

For reference, 3 entries again:

structure	result
Cc1cccc(C(CCN2CCC(c3ccccc3)CC2)CN(C)S(=O)(=O)c2ccccc2)c1	0.68 µM
CN(CC(C)(CCN1CCC2(CC1)CS(=O)(=O)c1ccccc12)c1ccccc1)S(=O)(=O)c1ccccc1	0.044 µM
CCCN(C(=O)OCc1cccc2ccccc12)C1CCN(CCC(CN(C)S(=O)(=O)c2ccccc2)c2ccccc2)CC1	0.005 µM

ICn: concentration for n% inhibition.